Measured values from several laboratories, pooled; numbers as filed in NIAID ChemDB.

Common to all: whole-cell or culture tests; agent: HIV-1

Blank or dashed fields: not listed here. Neighbouring rows are from separate reports. ECn: concentration that inhibits the pathogen or its effect by n%.

SMILES,cell line,strain or isolate,changes,conditions,endpoint,read by,result
C[C@H]1C[C@]1(Cn1cnc2c(N)ncnc21)OCP(=O)(O)O,HT4 + HeLa,NL4-3,,,EC50,plaque count,>100 µM
c1cc(CNCCN2CCOCC2)ccc1CNCCN1CCOCC1,MT-4,,,,EC50,MTT,>236.4 µM
CCCOP(=O)(OC[C@H]1O[C@@H](n2cc(C)c(=O)[nH]c2=O)C[C@@H]1N=[N+]=[N-])C(N)=O,MT-4,GKV-4046,,,EC50,p24,0.0096 µM
CC(C)(C)C(=O)OCOP(=O)(COCCn1cnc2c(N)ncnc21)OCOC(=O)C(C)(C)C,CEM,,,,EC50,cytopathic effect / MTT,0.18 µM
Cc1cn([C@@H]2O[C@H](CO[Si](C)(C)C(C)(C)C)[C@@]3(OS(=O)(=O)C=C3N)[C@H]2O[Si](C)(C)C(C)(C)C)c(=O)[nH]c1=O,CEM,IIIB,,,EC50,syncytia,0.05 µM
O=C(Nc1nc2ccc(C(F)(F)F)cc2s1)c1ccc([N+](=O)[O-])s1,CEM-GXR,NL4-3,,pseudotyped,EC50,flow cytometry,0.5 µM
Nc1ccc(-c2cccc(OCC(F)(F)F)c2)c(C(Cc2cc(F)cc(F)c2)NC(=O)Cc2c[nH]c3ccc(F)cc23)n1,MT-4,IIIB,,,EC50,ATP,3 µM
N#Cc1cccc(C2SCc3nc4ccccc4n32)c1,MT-4,,,,EC50,cytopathic effect,3.467 µM
CCOP(=O)(OC[C@H]1O[C@@H](n2cc(C)c(=O)[nH]c2=O)C[C@@H]1N=[N+]=[N-])C(N)=O,MT-4,GKV-4046,,,EC50,p24,0.0077 µM
Cc1cc(O)c2c(c1)C(=O)c1cc(O[C@@H]3O[C@H](CO[C@@H]4O[C@@H](C)[C@H](O)[C@@H](O)[C@H]4O)[C@@H](O)[C@H](O)[C@H]3O)cc(O)c1C2=O,C8166,IIIB,,,EC50,syncytia,2.9 µg/mL
[N-]=[N+]=N[C@H]1C[C@H](n2cc(C#CI)c(=O)[nH]c2=O)O[C@@H]1CO,PBMC,,,,EC50,,2.3 µM
Cc1cc(SC2=C(O)C[C@@](CCc3ccc(N)cc3)(C(C)C)OC2=O)c(C(C)(C)C)cc1CO,CEM,IIIB,,,EC50,cytopathic effect / XTT,0.46 µM
[N-]=[N+]=N[C@H]1C[C@H](n2cc(/C(I)=C\I)c(=O)[nH]c2=O)O[C@@H]1CO,PBMC,,,,EC50,,3.4 µM
CC(C)(C)C(=O)OCOP(=O)(COC1(Cn2cnc3c(=O)[nH]c(N)nc32)CC1)OCOC(=O)C(C)(C)C,HT4 + HeLa,NL4-3,,,EC50,plaque count,<10 µM
Nc1nc(=O)n([C@@H]2CS[C@H](CO)O2)cc1F,TZM-bl,LAI,E138K,,EC50,,2.5 µM
Cc1ccnc2c1NC(=O)c1cccnc1N2C1CC1,MT-4,K103N,NNRTI-resistant (RT K103N),,EC50,MTT,0.133 µM
CCN1c2ncccc2-c2nccn2-c2ccc(N3CCCC3)nc21,H9,IIIB,,7 d,EC50,p24,<0.082 µM
C=C(C)CN1Cc2cccc3[nH]c(=S)n(c23)CC1C,MT-4,,,,EC50,cytopathic effect,0.014 µM
CN1CCN(CCCNC(=O)Cc2ccc(CC(=O)NCCCN3CCN(C)CC3)cc2)CC1,MT-4,,,,EC50,MTT,>264 µM
Fc1cccc(Cl)c1C1SCc2nc3ccccc3n21,MT-4,,,,EC50,cytopathic effect,0.407 µM
COc1ccc(-c2c3c(cc4cc(OC)c(OC)cc24)CN(CC(C)C)C3)cc1OC,U87 (CD4+ CCR5+) + U87,CONB/pNL43E-Luc+,,,EC50,luciferase,0.01 µg/mL
CC(C)=CCN1Cc2cccc3[nH]c(=O)n(c23)CC1C,MT-4,,,,EC50,cytopathic effect,3.981 µM
CCOC(=O)P(=O)(OC[C@H]1O[C@@H](n2cc(C)c(=O)[nH]c2=O)C[C@@H]1N=[N+]=[N-])OC1CCCCC1,MT-4,GKV-4046,,,EC90,p24,0.031 µM
O=C([O-])c1cc(C(=O)[O-])cc(-c2c3nc(c(-c4cc(C(=O)[O-])cc(C(=O)[O-])c4)c4ccc([n-]4)c(-c4cc(C(=O)[O-])cc(C(=O)[O-])c4)c4nc(c(-c5cc(C(=O)[O-])cc(C(=O)[O-])c5)c5ccc2[n-]5)C=C4)C=C3)c1,MAGI cell,BaL,,,EC50,β-galactosidase,0.35 µM
CC(C)(C)NC(=O)[C@@H]1C[C@@H]2CCCC[C@@H]2CN1C[C@@H](O)[C@H](Cc1ccccc1)NC(=O)[C@H](CC(N)=O)NC(=O)c1ccc2ccccc2n1,PBL,,,,EC99,,0.015 µM
CC(C)(C)NC(=O)[C@@H]1CN(C(C)(C)c2cc3cnccc3o2)CCN1C[C@@H](O)C[C@@H](Cc1ccccc1)C(=O)N[C@H]1c2ccccc2OC[C@H]1O,,V-18C(PR-L10I M36I S37D M46I R57K LK63P A71V G73S I84V L90M I93L),PR-L10I M36I S37D M46I R57K LK63P A71V G73S I84V L90M I93L,,EC50,,<0.25 µM
CC(C)Nc1cccnc1N1CCN(C(=O)c2cc3ccccc3[nH]2)CC1,CEM,IIIB,RT-Y181C,,EC50,syncytia,1 µM
CC(C)=CCN1c2cc(Cl)cc3[nH]c(=S)n(c23)C[C@@H]1C,MT-4,,RT-L74V,,EC50,,<0.05 µM
Cc1ccnc2c1NC(=O)c1cccnc1N2C1CC1,MT-4,,RT-Y181C,,EC50,cytopathic effect / MTT,>30 µM
O=c1cc2ccccc2c(O)n1O,MT-4,IIIB,,,EC50,MTT,>69.13 µM
Cc1cn([C@H]2C[C@H](N=[N+]=[N-])[C@@H](CO)O2)c(=O)[nH]c1=O,MT-4,NL4 Aco-HSA-resistant,,,EC50,cytopathic effect / MTT,0.01 µg/mL
CCCCCCCCCCCCCCCCOCC(Cl)COP(=O)([O-])OCC[N+](C)(C)C,H9,IIIB,,,EC50,RT activity,~1 µM
Cc1cn([C@H]2C[C@H](N=[N+]=[N-])[C@@H](CO)O2)c(=O)[nH]c1=O,PBMC,ROJO,,,EC50,RT activity,0.14 µM
CCN1c2ncccc2-c2ncc(C)n2-c2ccc(OC)nc21,C8166,,,7 d,EC50,syncytia,<0.01 µM
Nc1ccn([C@H]2CC[C@@H](CO)O2)c(=O)n1,MT-2,HXB2D,,,EC50,cytopathic effect / XTT,0.0038 µM
C=CCN(C(=O)OCc1ccc([N+](=O)[O-])cc1)C1CCN(CCC(Cn2cnc3ccccc32)c2ccccc2)CC1,MAGI + MAGI-CCR5,BaL,,,EC50,β-galactosidase,<1 µM
NC(=O)c1nnn([C@@H]2O[C@@H](CO)[C@H](O)[C@H]2F)c1N,,,,,EC50,,>100 µM
Cc1cccc2c1O[P@](=O)(OC[C@@H]1C=C[C@H](n3cc(C)c(=O)[nH]c3=O)O1)OC2,CEM + CEM/O,,,,EC50,,0.057 µM
O=C(O)C1(O)C[C@@H](O)C(O)[C@H](O)C1,MT-2,LAI,,,EC50,,>1822 µM
O=c1[nH]cnc2c1ncn2[C@H]1CC[C@@H](CO)O1,MT-2,HXB2D (RT D67N K70R T215Y),RT-D67N K70R T215Y,,EC50,,0.0058 µM
CCOC(=O)c1cnnn1[C@@H]1O[C@@H](COC(=O)c2ccccc2)[C@H](OC(=O)c2ccccc2)[C@H]1F,,,,,EC50,,>100 µM
C=CCN(C(=O)OCc1ccccc1)C1CCN(CCC(Cn2cnc3ccccc32)c2ccccc2)CC1,MAGI + MAGI-CCR5,BaL,,,EC90,β-galactosidase,>3 µM
O=[N+]([O-])c1cncn1CCOC(c1ccccc1)c1ccccc1,MT-4,IIIB,,,EC50,cytopathic effect / MTT,100 µM
Cc1cc(/C=C/C#N)cc(C)c1Nc1ccnc(Nc2ccc(C#N)cc2)n1,TZM-bl,LAI,,,EC50,,0.0003 µM
c1cc(CCNCCCN2CCOCC2)ccc1CCNCCCN1CCOCC1,MT-4,,,,EC50,MTT,49.52 µM
O=C(O)[C@H]1O[C@@H](Oc2cc3oc(-c4ccccc4)cc(=O)c3c(O)c2O)[C@H](O)[C@@H](O)[C@@H]1O,PBMC,MN,,,EC50,cytopathic effect / p24 / ELISA,0.5 µg/mL
CC1CCCCN1CCCNCc1ccc(CC(=O)NCCCN2CCCCC2C)cc1,MT-4,,,,EC50,MTT,1.012 µM
Cc1cn([C@H]2C[C@H](N=[N+]=[N-])[C@@H](CO)O2)c(=O)[nH]c1=O,PBMC,LAV-1,,,EC50,RT activity,0.004 µM
COP(=O)(OC[C@H]1O[C@@H](n2cc(C)c(=O)[nH]c2=O)C[C@@H]1N=[N+]=[N-])C(N)=O,MT-4,GKV-4046,,,EC90,p24,>0.0026 µM
O=C1C=C2CC(C3=C4CC(C5=C6C(C7C(C8CC9=CC(=O)O[C@@]9%10C[C@@H]8N8CCCC8%10)C8=CC(=O)O[C@@]89C[C@@H]7N7CCCC79)=C[C@@H]7C[C@@]6(OC5=O)C5CCCN57)[C@@H]5C[C@@]4(OC3=O)C3CCCN35)[C@@H]3C[C@@]2(O1)C1CCCN13,MT-4,NL4-3,,,EC50,MTT,66.6 µM
CCn1c(=O)c(C)cn([C@@H]2O[C@H](CO[Si](C)(C)C(C)(C)C)C3(OS(=O)(=O)C=C3N)[C@H]2O[Si](C)(C)C(C)(C)C)c1=O,CEM,IIIB,,,EC50,syncytia,0.09 µM
Nc1ccccn1,CEM-T4,,,,EC90,MTT,>20 µM
CCN1c2ncccc2-c2nccn2-c2c(C)ccnc21,H9,IIIB,,7 d,EC50,p24,<0.55 µM
CC(C)(C)NC(=O)[C@@H]1CN(Cc2cccnc2)CCN1C[C@@H](O)C[C@@H](Cc1ccccc1)C(=O)N[C@H]1c2ccccc2C[C@H]1O,CEM + CEM-SS,IIIB,,,EC50,,<0.027 µM
COC(=O)[C@H](C)NP(=O)(OC[C@@H]1C=C[C@H](n2cnc3c(N)ncnc32)O1)Oc1ccccc1,C8166,IIIB,,,EC50,syncytia,0.055 µM
Nc1ccn([C@H]2CC[C@@H](CO)O2)c(=O)n1,MT-2,G910-6,,,EC50,cytopathic effect / MTT,~0.32 µg/mL
CCCCCCCCCCCCCCCCNc1ccn([C@H]2C[C@H](OP(=O)(O)OC[C@H]3O[C@@H](n4cc(C)c(=O)[nH]c4=O)C[C@@H]3N=[N+]=[N-])[C@@H](CO)O2)c(=O)n1,H9,IIIB,,,EC50,MTT / p24,0.05 µM
CC(C)(C)NC(=O)[C@@H]1C[C@@H]2CCCC[C@@H]2CN1C[C@@H](O)[C@H](Cc1ccccc1)NC(=O)[C@H](CC(N)=O)NC(=O)c1ccc2ccccc2n1,Primary CD4 lymphocytes + Lymphocytes,IIIB,,,EC50,p24,0.0043 µM
CC(C)=CCN1Cc2c(F)ccc3[nH]c(=S)n(c23)CC1C,MT-4,,,,EC50,cytopathic effect,0.006 µM
CCN1c2ncccc2-c2nccn2-c2ccc(N(C)C)nc21,C8166,,,7 d,EC50,syncytia,<0.1 µM
CC(C)CCNC(=O)C(F)(F)C(=O)[C@H](Cc1ccc(OCc2ccccc2)cc1)NC(=O)[C@@H](NC(=O)OCc1ccccc1)C(C)C,MT-4,RF,,,EC50,cytopathic effect / MTT,>44 µM
CCOCn1c(Sc2ccccc2)c(CC)c(=O)[nH]c1=S,CEM,IIIB,RT-Y181C,,EC50,syncytia,1.6 µM
CCOC(=O)P(=O)(OCCc1ccccc1)OC[C@H]1O[C@@H](n2cc(C)c(=O)[nH]c2=O)C[C@@H]1N=[N+]=[N-],MT-4,GKV-4046,,,EC90,p24,0.075 µM
COC(=O)C(=O)OC1(C(=O)O)C[C@@H](OC(=O)/C=C/c2ccc(O)c(O)c2)C(O)[C@H](OC(=O)/C=C/c2ccc(O)c(O)c2)C1,MT-2,LAI,,,EC50,,7 µM
Nc1nc(Cl)c2ncn(CCCCCB(O)O)c2n1,PBMC,BaL,,,EC50,p24,<0.5 µM
O=C1C=C2CC(C3=C4C(C5C(C6CC7=CC(=O)O[C@@]78C[C@@H]6N6CCCC68)C6=CC(=O)O[C@@]67C[C@@H]5N5CCCC57)=C[C@@H]5C[C@@]4(OC3=O)C3CCCN35)[C@@H]3C[C@@]2(O1)C1CCCN13,MT-4,NL4-3,,,EC50,MTT,97.3 µM
O=c1[nH]c(=O)n([C@H]2C[C@H](F)[C@@H](CO)O2)cc1/C(Br)=C/I,PBMC,,,,EC50,,0.6 µM
O=C(O)c1cc(C(=O)O)cc(-c2c3nc(c(-c4cc(C(=O)O)cc(C(=O)O)c4)c4ccc([nH]4)c(-c4cc(C(=O)O)cc(C(=O)O)c4)c4nc(c(-c5cc(C(=O)O)cc(C(=O)O)c5)c5ccc2[nH]5)C=C4)C=C3)c1,MAGI cell,BaL,,,EC50,β-galactosidase,1.9 µM
C=CCN1Cc2cccc3[nH]c(=S)n(c23)CC1C,MT-4,,,,EC50,cytopathic effect,67.6 µM
c1cc(CNCCCN2CCCCC2)ccc1CCNCCCN1CCCCC1,MT-4,,,,EC50,MTT,0.325 µM
Nc1ccn([C@H]2CC[C@@H](CO)O2)c(=O)n1,MT-4,RF,,,EC50,cytopathic effect / MTT,0.147 µM
NC(=O)c1cn([C@@H]2O[C@@H](CO)[C@H](O)[C@H]2F)nn1,,,,,EC50,,>100 µM
Cc1cc(C)nc(N2C(=O)CSC2c2c(Cl)cccc2[N+](=O)[O-])c1,TZM-bl,N119,,,EC50,luciferase,0.65 µg/mL
Nc1nc(=O)n([C@@H]2CS[C@H](CO)O2)cc1F,CEM(TK-) + CEM TK-,LAV-1,,,EC50,cytopathic effect,0.03 µM
CC(C)=CCN1Cc2cccc3[nH]c(=O)n(c23)CC1C,MT-4,IIIB,,,EC50,cytopathic effect / MTT,13 µM

Repeating the final 5 entries:

SMILES | cell line | strain or isolate | changes | conditions | endpoint | read by | result
Nc1ccn([C@H]2CC[C@@H](CO)O2)c(=O)n1 | MT-4 | RF |  |  | EC50 | cytopathic effect / MTT | 0.147 µM
NC(=O)c1cn([C@@H]2O[C@@H](CO)[C@H](O)[C@H]2F)nn1 |  |  |  |  | EC50 |  | >100 µM
Cc1cc(C)nc(N2C(=O)CSC2c2c(Cl)cccc2[N+](=O)[O-])c1 | TZM-bl | N119 |  |  | EC50 | luciferase | 0.65 µg/mL
Nc1nc(=O)n([C@@H]2CS[C@H](CO)O2)cc1F | CEM(TK-) + CEM TK- | LAV-1 |  |  | EC50 | cytopathic effect | 0.03 µM
CC(C)=CCN1Cc2cccc3[nH]c(=O)n(c23)CC1C | MT-4 | IIIB |  |  | EC50 | cytopathic effect / MTT | 13 µM